A mixed list of measured activities; the numbers were collected in NIAID ChemDB.

Lines come from different laboratories, so protocols vary.

compound,dose,organism,read by,strain or isolate,test,measure,target,result
COc1ccc(N2CCN(c3cncc(-c4ccccc4CO)n3)CC2)cc1OC,,Cytomegalovirus,,,target,IC50,UL97 kinase,<100 µM
NC(=S)NN=C1CCCCCCCCCCC1,6.25 µg/mL,Mycobacterium tuberculosis,resazurin,H37Rv,culture,inhibition,,56%
CCOC(=O)C1CSC(C)C1=O,,Mycobacterium tuberculosis,,H37Rv,culture,MIC,,25 µg/mL
Fc1cccc(-c2cncc(N3CCN(c4ccccc4)CC3)n2)c1,10 µM,Cytomegalovirus,,,target,inhibition,UL97 kinase,>15%
Nc1ccc(O)c([As](=O)(O)O)c1,,Mycobacterium tuberculosis,,H37Rv,culture,MIC,,>100 µg/mL
CCOC(=O)C1C2(C)NC(=O)C1(Cc1ccccc1)c1cc(C)c(C)cc1O2,12.5 µg/mL,Mycobacterium tuberculosis,BACTEC,H37Rv,culture,inhibition,,28%
O=C(O)CC1CCCCC1,,Mycobacterium tuberculosis,,H37Rv,culture,MIC,,>100 µg/mL
Nc1ccc(/C(=N/NC(=O)C(=O)N/N=C(\c2ccccc2)c2ccc(N)cc2)c2ccccc2)cc1,,Mycobacterium tuberculosis,BACTEC,H37Rv,culture,MIC,,≥12.5 µg/mL
COc1cccc(N2CCN(c3cncc(-c4ccc(C(N)=O)cc4)n3)CC2)c1,1 µM,Cytomegalovirus,,,target,inhibition,UL97 kinase,<50%
CC1(C)OC2C3OCC(O3)C(OS(C)(=O)=O)C2O1,12.5 µg/mL,Mycobacterium tuberculosis,BACTEC,H37Rv,culture,inhibition,,4%
COc1ccc(OC)c(-c2cncc(N3CCN(c4ccc(OC)c(OC)c4)CC3)n2)c1,10 µM,Cytomegalovirus,,,target,inhibition,UL97 kinase,>15%
CN1CCN(c2ccncc2S(=O)(=O)N2CCN(C)CC2)CC1,6.25 µg/mL,Mycobacterium tuberculosis,resazurin,H37Rv,culture,inhibition,,8%
Cc1ccc(N2CCN(c3cncc(-c4ccc(C(F)(F)F)cc4)n3)CC2)c(C)c1,10 µM,Cytomegalovirus,,,target,inhibition,UL97 kinase,>15%
O=C(c1ccccc1)N1CCOCC1,,Mycobacterium tuberculosis,,H37Rv,culture,MIC,,>100 µg/mL
Fc1ccc(N2CCCCC2)c(NC(=S)c2ccncc2)c1,10 µM,,kinase activity,,host protein,inhibition,MAPK2,-17%
O=C(c1cccc(O)c1)c1ccc(O)c(O)c1O,,Mycobacterium tuberculosis,,H37Rv,culture,MIC,,>100 µg/mL
COc1ccc(-c2cncc(N3CCN(c4ccc(C)cc4C)CC3)n2)cc1OC,10 µM,Cytomegalovirus,,,target,inhibition,UL97 kinase,>15%
C/C=c1\[nH]c(=O)/c(=C/C=C/C)[nH]c1=O,,Mycobacterium tuberculosis,BACTEC,H37Rv,culture,MIC bound,,>12.5 µg/mL
O=C1N(CO)CCN1CO,,Mycobacterium tuberculosis,,H37Rv,culture,MIC,,>100 µg/mL
O=C(CSC1CCc2ccccc21)N/N=C/c1ccccc1O,12.5 µg/mL,Mycobacterium tuberculosis,BACTEC,H37Rv,culture,inhibition,,29%
O=C1NCN(CCO)CN1,,Mycobacterium tuberculosis,,H37Rv,culture,MIC,,>100 µg/mL

The last 3 rows once more:

compound | dose | organism | read by | strain or isolate | test | measure | target | result
O=C1N(CO)CCN1CO |  | Mycobacterium tuberculosis |  | H37Rv | culture | MIC |  | >100 µg/mL
O=C(CSC1CCc2ccccc21)N/N=C/c1ccccc1O | 12.5 µg/mL | Mycobacterium tuberculosis | BACTEC | H37Rv | culture | inhibition |  | 29%
O=C1NCN(CCO)CN1 |  | Mycobacterium tuberculosis |  | H37Rv | culture | MIC |  | >100 µg/mL

MIC bound comes from a single tested concentration. Percent inhibition refers to the dose given; in toxicity tests it is the harm to the cells. ICn: concentration for n% inhibition. An empty or dashed field is not shown.